Test [1] addresses LayV F I167F/S186P ectodomain (Langya virus). Description: negative-stain EM.
Test [2] has as its target LayV F I167F/S186P/N95C/A114C ectodomain (Langya virus). Description: negative-stain EM.
In test [3] the target is LayV F N95C/A114C ectodomain (prefusion-stabilized) (Langya virus). The test can be described thus: negative-stain EM.
Test [4] addresses T1, LayV F (ectodomain as flowed over 4G5 IgG in Extended Data Fig. 7) (Langya virus (LayV)).
T1 chain: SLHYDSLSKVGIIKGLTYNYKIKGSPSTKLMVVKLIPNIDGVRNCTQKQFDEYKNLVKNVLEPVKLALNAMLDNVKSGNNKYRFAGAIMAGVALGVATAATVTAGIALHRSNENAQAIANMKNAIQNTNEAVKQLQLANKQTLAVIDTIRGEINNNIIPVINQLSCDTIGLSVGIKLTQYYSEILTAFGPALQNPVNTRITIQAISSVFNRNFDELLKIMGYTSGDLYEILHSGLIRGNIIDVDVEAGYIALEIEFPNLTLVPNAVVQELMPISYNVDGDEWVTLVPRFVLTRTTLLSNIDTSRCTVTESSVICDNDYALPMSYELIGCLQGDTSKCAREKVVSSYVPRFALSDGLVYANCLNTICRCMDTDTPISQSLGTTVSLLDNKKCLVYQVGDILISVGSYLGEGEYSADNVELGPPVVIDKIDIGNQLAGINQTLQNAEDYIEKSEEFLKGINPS
The test can be described thus: BLI; 4G5 IgG immobilized on AMC biosensors; 100nM of LayV F or NiV F. Particulars: both partners purified. Background: BLI is a label-free optical method that tracks binding on a fibre tip over time.

What is called stoichiometry N is a count of units in the complex or per binding partner. As to “LayV F I167F/S186P ectodomain (domain or fragment)”, the stoichiometry N in test [1] worked out at 3.

The molecule “LayV F I167F/S186P/N95C/A114C ectodomain (domain or fragment)” had a stoichiometry N in test [2] of 3.

“LayV F N95C/A114C ectodomain (prefusion-stabilized) (domain or fragment)” returned a stoichiometry N in test [3] of 3.

B1: 4G5 IgG (antibody, V domains shown)
VH: EVQLQQSGADLVKPGASVKLSCTASGFNIKDTYIHWVKQRPEQGLEWIGRIDPANDNFKYDPKFQGKATITTDTSSNTAYLQLSSLTSEDTAVYYCASVITTTGYALDYWGQGTSVTVSS
VL: DIQMTQSPASLSASVGETVTITCRASGNIHNYLAWYQQKQGKSPQLLVYSAKTLADGVPSRFSGSGSGTQYSLKINSLQPEDFGSYYCQHFWSSPRTFGGGTKLEIK
notes: also called MojV F-directed monoclonal antibody (mAb) (4G5); copies: 2 + 2
With B1, the binding result in test [4] is “binds”.

For the origin of these results see paper doi:10.1101/2023.08.20.554025 (bioRxiv, 2023).
